{"sequences": {"note": "The chains behind the UniProt entries cited, without tags or fusion partners. Residues count along the entry.", "UniProt P0DPI0, 2-448 limits assumed": "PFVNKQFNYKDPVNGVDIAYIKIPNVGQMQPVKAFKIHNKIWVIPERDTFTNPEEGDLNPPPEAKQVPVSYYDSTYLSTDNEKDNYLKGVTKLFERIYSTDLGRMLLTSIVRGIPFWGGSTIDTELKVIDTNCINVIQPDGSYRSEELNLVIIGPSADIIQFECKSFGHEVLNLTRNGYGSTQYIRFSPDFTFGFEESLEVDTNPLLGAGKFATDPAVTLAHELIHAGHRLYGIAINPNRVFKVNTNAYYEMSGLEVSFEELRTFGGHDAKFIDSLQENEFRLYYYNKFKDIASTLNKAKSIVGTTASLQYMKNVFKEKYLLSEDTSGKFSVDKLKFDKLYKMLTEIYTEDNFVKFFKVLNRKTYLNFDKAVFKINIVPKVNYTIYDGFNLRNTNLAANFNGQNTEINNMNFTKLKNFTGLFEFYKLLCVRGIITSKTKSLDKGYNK"}, "source": "patent US20220226282A1", "about": "(priority 2021, published 2022)", "molecular_target": "BoNT/A LC (Clostridium botulinum, UniProt P0DPI0)", "assay": "FRET peptide substrate-based BoNT/A LC endopeptidase assay", "type": "biochemical, C. botulinum", "conditions": "more elaborate testing of selected inhibitors"}
{"molecule": "O=c1ccc2cc3c(-c4ccc([N+](=O)[O-])cc4)coc3cc2o1", "note": "[Compound 1, 3-(4-nitrophenyl)-7H-furo[3,2-g]chromen-7-one]", "values": [{"measurement": "effectiveness against BoNT/A endopeptidase", "result": "high effectiveness"}]}
